Laboratory results: ChEMBL document CHEMBL6120975 (2024)

Amino acid sequences for entries named in this document (tags omitted).
UniProt P36544, whole entry, looked up: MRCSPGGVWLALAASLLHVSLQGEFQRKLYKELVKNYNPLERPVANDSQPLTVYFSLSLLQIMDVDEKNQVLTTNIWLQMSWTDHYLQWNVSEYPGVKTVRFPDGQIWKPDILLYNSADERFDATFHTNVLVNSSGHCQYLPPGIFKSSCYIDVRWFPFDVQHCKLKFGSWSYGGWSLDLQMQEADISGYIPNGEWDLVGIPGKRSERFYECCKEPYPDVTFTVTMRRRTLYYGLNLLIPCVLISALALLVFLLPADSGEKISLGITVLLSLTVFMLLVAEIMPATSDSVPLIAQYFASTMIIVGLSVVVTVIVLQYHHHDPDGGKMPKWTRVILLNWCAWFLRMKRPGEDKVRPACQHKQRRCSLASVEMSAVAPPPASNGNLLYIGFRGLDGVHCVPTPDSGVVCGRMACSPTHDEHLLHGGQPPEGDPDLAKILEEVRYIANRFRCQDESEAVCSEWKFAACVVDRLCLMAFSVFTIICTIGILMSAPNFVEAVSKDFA

Target: Neuronal acetylcholine receptor subunit alpha-7 (Homo sapiens, UniProt P36544)
Assay: Inhibition of human alpha7 nAChR expressed in acetylcholine-induced Xenopus laevis oocytes assessed as inhibition of acetylcholine-induced current by measuring fold change at 100 nM incubated for 5 mins by two electrode voltage-clamp assay
Details: Oocyte

SMILES: CC[C@H](C)[C@H](NC(=O)[C@H](CCCNC(=N)N)NC(=O)[C@H](CCCNC(=N)N)NC(=O)[C@H](Cc1ccc(O)cc1)NC(=O)[C@H](CCCNC(=N)N)NC(=O)[C@H](CCCNC(=N)N)NC(=O)[C@H](CCCNC(=N)N)NC(=O)[C@H](CCCNC(=N)N)NC(=O)[C@H](CC(=O)O)NC(=O)[C@H](Cc1ccc(O)cc1)NC(=O)[C@@H]1CCCN1C(=O)[C@H](CO)NC(=O)[C@H](CCCNC(=N)N)NC(=O)[C@H](Cc1ccc(O)cc1)NC(=O)[C@H](CCCNC(=N)N)NC(=O)CNC)C(=O)N[C@H](C(=O)N[C@@H](CC(=O)O)C(N)=O)[C@@H](C)O
- fold change (FC): 3
